# Reference: the supplement of paper PMC9931576
# Human monoclonal antibodies against the spike receptor-binding domain (heavy:light variable regions). IC50 against pseudoviruses bearing the spike of naturally observed variants; lower = stronger; >10 µg/ml means not reached at the top dose. No active / inactive call. The stated detection limit is 0.0005 µg/ml; values near or below 0.001 µg/ml lie at the floor of the assay.
# B1: BD57-0274 (protein)
# chain 1: QITLKESGPTLVKPTQTLTLTCTFSGFSLSTSGVGVGWIRQPPGKALEWLALIFWDDDKRYSPSLRSRLTIAKDTSKNQVVLTLTNIDPVDTATYYCAHRRDYYDSNDFYYAVDYWGQGTLVTVSA
# chain 2: EIVMTQSPATLSVSPGERATLSCRASQSIRSNLAWYQQKPGQAPRLLIYDASTRATGISARFSGRGSGTEFTLTISSLQSEDLVVYYCQQYNDWPFTFGPGTKVDIK
# B2: BD56-302 (protein)
# chain 1: EVQLVESGGGLVQPGRSLRLSCAASGFTFDDYAMHWVRQAPGKGLEWVSGISWNGDNIAYADSVKGRFTISRDNAKNSLYLQMNSLRPEDTAFYYCAKDILPGSSWYYGMDVWGQGTTVTVSS
# chain 2: QSVLTQPPSASGTPGQRVTISCSGSSSHIGSNTVNWYQQLPGTAPKLLLYSNNQRPSGVPDRFSGSKSGTSASLAISGLQSEDEADYYCAAWDDSLNGYVFGTGTKVTVL
# B3: BD57-0158 (protein)
# chain 1: QITLKESGPTLVKPTQTLTLTCTFSGFSLSTSGVGVGWIRQPPGKALEWLALIYWDDDKRYSPSLKSRLTITKDTSKNQVVLTMTNMDPVDTATYYCAHSEGWEWLDSFWFDPWGQGTLVTVSS
# chain 2: EIVMTQSPATLSVSPGERATLSCRASQSVSSNLAWYQQKPGQAPRLLIYGASTRATDIPARFSGSGSGTEFTLTISSLQSEDFAVYYCQQYNNWWTFGQGTKVEIK
# B4: BD57-0192 (protein)
# chain 1: QVQLVESGGGVVQPGKSLRLSCAASGFTFSIYGMHWVRQAPGKGLEWVAIIWFDGGKTYYVDSVKGRFTISRDNSKNTLYLQMNSLRAEDTAVYYCARDSGGYYGVDYWGQGTLVTVSS
# chain 2: NFMLTQPHSVSESPGKTVTISCTRSSGSIASNYVQWYQQRPGSAPTTVIFEDNQRPSGVPDRFSGSIDSSSESASLTISGLRPEDGADYYCQSHAGTNWVFGGGTKLTVL
# B5: BD57-0253 (protein)
# chain 1: QITLKESGPTLVKPTQTLTLTCTFSGFSLSTSGVGVGWIRQPPGKALEWLALIYWDDDKRYSPSLKSRLTITKDTSKNQVVLTMTNMDPVDTATYYCAHTWDKTSWTDNNWFDPWGQGTLVTVSS
# chain 2: EIVLTQSPATLSLSPGERATLSCRASQSVSSYLAWYQQKPGQAPRLLIYDASNRATGIPARFSGSGSGTDFTLTISSLEPEDFAVYYCQQRSHWPITFGPGTRLEIK
# Experiments:
# Assay in all cases: pseudovirus neutralization IC50; higher = weaker neutralization
# [1] = biological target: SARS-CoV-2 Omicron BA.1 spike pseudovirus
# Description: (§1)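 Single-round VSV luciferase pseudovirus mixed with antibody dilutions for 1 h and put on Huh-7 cells for about a day; IC50 from the dose curve.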
# [2] = biological target: SARS-CoV-2 Omicron BA.2 spike pseudovirus
# Description: as §1
# [3] = biological target: SARS-CoV-2 Omicron BA.2.75 spike pseudovirus
# Description: as §1
# [4] = biological target: SARS-CoV-2 Omicron BA.2.75.2 spike pseudovirus
# Description: as §1
# [5] = biological target: SARS-CoV-2 Omicron BA.5 spike pseudovirus
# Description: as §1
# [6] = biological target: SARS-CoV-2 Omicron BM.1.1.1 spike pseudovirus
# Description: as §1
# [7] = biological target: SARS-CoV-2 Omicron BQ.1.1 spike pseudovirus
# Description: as §1
# [8] = biological target: SARS-CoV-2 Omicron BR.2 spike pseudovirus
# Description: as §1
# [9] = biological target: SARS-CoV-2 Omicron CA.1 spike pseudovirus
# Description: as §1
# [10] = biological target: SARS-CoV-2 Omicron XBB spike pseudovirus
# Description: as §1
# [11] = biological target: SARS-CoV-2 early D614G spike pseudovirus
# Description: as §1
Binder,pseudovirus neutralization IC50 [1] [µg/mL],pseudovirus neutralization IC50 [2] [µg/mL],pseudovirus neutralization IC50 [3] [µg/mL],pseudovirus neutralization IC50 [4] [µg/mL],pseudovirus neutralization IC50 [5] [µg/mL],pseudovirus neutralization IC50 [6] [µg/mL],pseudovirus neutralization IC50 [7] [µg/mL],pseudovirus neutralization IC50 [8] [µg/mL],pseudovirus neutralization IC50 [9] [µg/mL],pseudovirus neutralization IC50 [10] [µg/mL],pseudovirus neutralization IC50 [11] [µg/mL]
B1,> 10,0.492,> 10,> 10,0.216,> 10,> 10,> 10,> 10,> 10,> 10
B2,0.0189,0.0213,> 10,> 10,0.392,> 10,> 10,> 10,> 10,> 10,> 10
B3,> 10,> 10,> 10,> 10,> 10,> 10,> 10,> 10,> 10,> 10,> 10
B4,> 10,> 10,> 10,> 10,> 10,> 10,> 10,> 10,> 10,> 10,> 10
B5,> 10,> 10,> 10,> 10,> 10,> 10,> 10,> 10,> 10,> 10,> 10
